Legend:
MDA-MB-468 cells = test: cell viability assay (MTS); assay type: cell-based, human
SK-BR-3 cells = test: cell viability assay (MTS); assay type: cell-based, human; conditions: SK-BR-3 (HER2++); agent titrated + fixed 50 pM trastuzumab-saporin

cetuximab-(Cys-S-SO1861)^3.7: SO1861-HATU (stable linker) conjugated via cysteine residues to cetuximab
IC50 cell killing (MDA-MB-468 cells; MDA-MB-468 (EGFR++), agent titrated + 10 pM cetuximab-saporin): same enhanced cell killing activity

trastuzumab-(Cys-L-SO1861)^2.1: SO1861-EMCH conjugated via cysteine residues to trastuzumab
IC50 cell killing (SK-BR-3 cells): Same results were obtained

cetuximab-Cys-(dendron(-L-SO1861)^4)^3,9: Dendron(-L-SO1861)^4 conjugated to cetuximab via cysteine residues
IC50 (MDA-MB-468 cells; MDA-MB-468 (EGFR++), agent titrated + 10 pM cetuximab-saporin, read-out: IC50 cell killing): 0.4 nM | cell killing activity (MDA-MB-468 cells; MDA-MB-468, agent alone): not induced

From patent publication US20220054643A1, “SAPONIN CONJUGATED TO EPITOPE-BINDING PROTEINS” (priority 2018, published 2022)
